Data source: PubChem BioAssay AID504761 (Drosophila RNAi Screening Center, 2011)
The deposit covers about 22,000 reagents; this is an unselected part of those with a known target gene and a result. Of all reagents, 116 (0.52%) got an active call. 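Calls depend on retest data that are not deposited; infection was ranked per plate without normalising between plates; the unit of the infection score is not given.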 Raw values vary from plate to plate and are shown uncorrected. Reagents against one gene are numbered here. Names joined by + are all predicted targets of the reagent. Not stated in the record: the amount of reagent, the time to read-out.

Screen: 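Insect host genes that dengue virus relies on to spread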 (primary screen)
Cells: D.Mel-2 cells from Drosophila
Knock-down reagent: long dsRNA against Drosophila genes
Conditions: infection with dengue virus type 2; dose and infection time not stated
Measured: 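Cells stained for dengue envelope protein and imaged; percent of infected cells per well on duplicate plates, ranked by infection, with stained nuclei counted for cell number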
Reading the numbers: infection score: higher = more virus-infected cells; cell count: higher = more cells in the well
Call rule: 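Low infection ranks in the two replicates (chance level up to 0.065) followed by a retest with a 1.5-fold or larger significant decrease, p below 0.05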
Calls: active = confirmed: knock-down lowers infection; inactive = not picked or not confirmed

no.	gene	reagent	infection score, replicate 1	infection score, replicate 2	cell count, replicate 1	cell count, replicate 2	Outcome
1	Tango14 (Transport and Golgi organization 14)	1	9.31	3.55	7057	6755	inactive
2	Tango14 (Transport and Golgi organization 14)	2	27.1	25.3	5948	5725	inactive
3	ppk18 (pickpocket 18)	1	4.68	5.97	6524	6531	inactive
4	moi + Tgs1	1	2.8	1.28	6721	6460	inactive
5	PAN3 (Poly(A) specific ribonuclease subunit PAN3)	1	6.92	11.4	6081	5460	inactive
6	PAN3 (Poly(A) specific ribonuclease subunit PAN3)	2	3.33	6.35	5796	5767	inactive
7	yellow-d2	1	2.99	1.96	6530	6382	inactive
8	CG4597	1	1.44	2.4	6306	6253	inactive
9	Desat2 (Desaturase 2)	1	12.6	16.2	5777	5119	inactive
10	Desat2 (Desaturase 2)	2	2.82	6.82	6565	5707	inactive
11	Dbp80 (Dead box protein 80)	1	9.14	5.52	6246	5792	inactive
12	CG14635	1	9.48	5.76	3303	6133	inactive
13	CG14635	2	14.6	9.29	6368	6296	inactive
14	Rrp1 (Recombination repair protein 1)	1	3.38	2.33	6364	6788	inactive
15	Rrp1 (Recombination repair protein 1)	2	5.01	2.09	5546	5642	inactive

Continued (2 carried over from the part before).
no.	gene	reagent	infection score, replicate 1	infection score, replicate 2	cell count, replicate 1	cell count, replicate 2	Outcome
14	Rrp1 (Recombination repair protein 1)	1	3.38	2.33	6364	6788	inactive
15	Rrp1 (Recombination repair protein 1)	2	5.01	2.09	5546	5642	inactive
16	CG16736	1	6.71	9.02	6961	7059	inactive
17	CG5704	1	21	10	5842	3906	inactive
18	ImpE1 (Ecdysone-inducible gene E1)	1	1.9	0.92	6326	6197	inactive
19	ImpE1 (Ecdysone-inducible gene E1)	2	1.93	2.13	6111	6189	inactive
20	ImpE1 (Ecdysone-inducible gene E1)	3	0.52	8.29	6522	6636	inactive
21	Srr (Serine racemase)	1	2.62	4.1	7065	7118	inactive
22	Srr (Serine racemase)	2	7.25	2.16	6278	6066	inactive
23	RnpS1 (RNA-binding protein S1)	1	9.02	16.6	5542	5397	inactive
